Test results reported in PMC7493962, “Structure-based inhibitors targeting the alpha-helical domain of the Spiroplasma melliferum histone-like HU protein” (Scientific Reports, 2020).

Key:
Experiment in all cases: EMSA
Details in all cases: EMSA: 20 mM Tris-HCl pH 8.0, 150 mM NaCl, 7% glycerol, 10 nM DNA, 10 min, temperature not stated; NMR: 50 mM sodium phosphate pH 7.2, 0.1 mM NaN3, 30 C
[1] = tested on: HUSpm_R57A (Spiroplasma melliferum), PDB:5L8Z_1
[2] = tested on: HUSpm_K88A (Spiroplasma melliferum), PDB:5L8Z_1
[3] = tested on: HUSpm_K80A (Spiroplasma melliferum), PDB:5L8Z_1

| Sequence | Kd [1] [nM] | Kd [2] [nM] | Kd [3] [nM] |
| --- | --- | --- | --- |
| AGTCTAGAGTGCAAGTTGAGTCCTT / AAGGACTCAACTGCACTCTAGACT [DS24a (24a)] | 230 | 84 | – |
| AGTCTAGAGTGCAGTTGAGTCCTTGCTACGACGGATCCCTTAGGTCAG (double strand) [DS48 (48)] | 788 | 390 | 163 |
| AGTCTAGAGTGCAGTTGAGTCCTTGCTACGACGGATCCCTTAGGTCAG / AAGGACTCAACTGCACTCTAGACT / CTGACCTAAGGGATCCGTCGTAG [Nick (N)] | 398 | 220 | 69 |
| AGTCTAGAGTGCAGTTGAGTCCTTGCTACGACGGATCCCTTAGGTCAG / CTGACCTAAGGGATCCGTCGTAGCAAGAAAAAAAGACTCAACTGCACTCTAGACT [A7 bulge (A7)] | 121 | 51 | 13 |
| AGTCTAGAGTGCAGTTGAGTCCTTGCTACGACGGATCCCTTAGGTCAG / CTGACCTAAGGGATCCGTCGTAGCAAGAGACTCAACTGCACTCTAGACT [A1 bulge (A1)] | 175 | 83 | 41 |
